Consider one compound from paper PMC7918931 (Viruses, 2021).

Protein sequences, listed by entry. Tags and fused reporters are not part of them. Residues count along the entry.
UniProt Q9HAU4, 297-330: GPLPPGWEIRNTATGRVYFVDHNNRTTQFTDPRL

The assay deals with GST-SMURF2-WW3 (Homo sapiens, UniProt Q9HAU4). The format is binding. The note with it: pH 7.4.

Turning to `CC[C@H](C)[C@H](NC(=O)[C@H](C)NC(=O)[C@H](CCC(=O)O)NC(=O)[C@H](CCSC)NC(=O)[C@H](Cc1ccc(O)cc1)NC(=O)[C@H](CCC(=O)O)NC(=O)[C@@H]1CCCN1C(=O)[C@@H]1CCCN1C(=O)[C@H](C)NC(=O)[C@@H](NC(=O)[C@@H]1CCCN1C(=O)[C@H](CC(C)C)NC(=O)[C@@H](NC(=O)[C@@H](NC(=O)[C@H](CCCNC(=N)N)NC(=O)[C@H](CCCNC(=N)N)NC(=O)[C@@H](N)CCSC)C(C)C)[C@@H](C)CC)[C@@H](C)O)C(=O)N[C@@H](CCCCNC(=O)CCCC[C@@H]1SC[C@@H]2NC(=O)N[C@@H]21)C(=O)O` [eVP40-WT peptide], the “binding to SMURF2 WW3 (in words)” value is given as “bound robustly to WW3 of SMURF2 in a concentration-dependent manner”.
